B1: Mycobacterium tuberculosis MmpL5 ∆494-688 with a C-terminal GFP-FLAG tag (natural protein)
chain: MIVQRTAAPTGSVPPDRHAARPFIPRMIRTFAVPIILGWLVTIAVLNVTVPQLETVGQIQAVSMSPDAAPSMISMKHIGKVFEEGDSDSAAMIVLEGQRPLGDAAHAFYDQMIGRLQADTTHVQSLQDFWGDPLTATGAQSSDGKAAYVQVKLAGNQGESLANESVEAVKTIVERLAPPPGVKVYVTGSAALVADQQQAGDRSLQVIEAVTFTVIIVMLLLVYRSIITSAIMLTMVVLGLLATRGGVAFLGFHRIIGLSTFATNLLVVLAIAAATDYAIFLIGRYQEARGLGQDRESAYYTMFGGTAHVVLGSGLTIAGATFCLSFTRLPYFQTLGVPLAIGMVIVVAAALTLGPAIIAVTSRFGKLLEPKRMARVRGWRKVGAAIVRWPGPILVGAVALALVGLLTLPGYRTNYNDRNYLPADLPANEGYAAAERHFSQARMNPEVLMVESDHDMRNSADFLVINKIAKAIFAVEGISRVQAITRPDGKPIEFYLPPEVFDNPDFQRGLEQFLSPDGHAVRFIISHEGDPMSQAGIARIAKIKTAAKEAIKGTPLEGSAIYLGGTAAMFKDLSDGNTYDLMIAGISALCLIFIIMLITTRSVVAAAVIVGTVVLSLGASFGLSVLIWQHILGIELHWLVLAMAVIILLAVGADYNLLLVARLKEEIHAGINTGIIRAMGGSGSVVTAAGLVFAFTMMSFAVSELTVMAQVGTTIGMGLLFDTLIVRSFMTPSIAALLGKWFWWPQVVRQRPIPQPWPSPASARTFALV
B2: Mycobacterium smegmatis acyl carrier protein AcpM (MSMEG_4326) (natural protein)
chain: MAATQEEIIAGLAEIIEEVTGIEPSEVTPEKSFVDDLDIDSLSMVEIAVQTEDKYGVKIPDEDLAGLRTVGDVVAYIQKLEEENPEAAAALREKFAADQ
modifications: 4′-phosphopantetheine on Ser41
B3: Mycobacterium tuberculosis MmpS5 (natural protein)
chain: MIGTLKRAWIPLLILVVVAIAGFTVQRIRTFFGSEGILVTPKVFADDPEPFDPKVVEYEVSGSGSYVNINYLDLDAKPQRIDGAALPWSLTLKTTAPSAAPNILAQGDGTSITCRITVDGEVKDERTATGVDALTYCFVKSA

Tests used:
cryo-EM structure = molecular target: the molecule itself; experiment: cryo-EM structure
[1] = molecular target: B1; experiment: cryo-EM structure

B1
stoichiometry N (cryo-EM structure): 3 protomers

B2
binding result [1]: binds

B3
stoichiometry N [1]: 1 MmpS5 per MmpL5 (3:3)
